Results of unrelated studies side by side (data: NIAID ChemDB).

Shared fields: growth or infection tests; agent: Hepatitis C virus; measure: EC50

Rows are shuffled and stem from different studies. ECn: concentration that inhibits the pathogen or its effect by n%. a–b is a range or a potency band. An empty or dashed field is not shown.

SMILES,strain or isolate,cells,read by,result
COCCN(C(=O)c1ccc(Cl)cc1Cl)c1cc(-c2ccc(-c3cc4ncccn4n3)cc2)sc1C(=O)O,1a,,luciferase / replicon,0.01–0.05 µM
Cc1ccccc1C(=O)N/N=C/c1ccccc1OS(=O)(=O)c1ccc(C(F)(F)F)cc1,,Huh7,replicon,<5 µM
Nc1ccn([C@@H]2O[C@H](CO)C[C@H]2O)c(=O)n1,,Huh7,,34.1 µM
COCCN(C(=O)C1CCC(C)CC1)c1cc(-c2ccc(-c3cc4ncccn4n3)cc2)sc1C(=O)O,1a,,replicon / ELISA,0.001–0.0049 µM
COc1ccc(-c2nc(NC(=O)[C@@H](C)c3ccc(Cl)cc3)[nH]c2C)cc1S(C)(=O)=O,1b,Huh7,luciferase,0.056 µM
COc1nc(N)nc2c1ncn2[C@@H]1O[C@H](COP(=O)(N[C@@H](CC(C)C)C(=O)OCC(C)(C)C)Oc2cccc3ccccc23)[C@@H](O)[C@@]1(C)O,1b replicon,Huh7,luciferase / replicon,0.06 µM
CSc1ccc(CC(=O)N/N=C/c2ccccc2OS(=O)(=O)c2ccc(C(F)(F)F)cc2)cc1,,Huh7,replicon,<5 µM
O=c1nc(NO)ccn1[C@@H]1O[C@H](CO)[C@@H](O)[C@H]1O,,Huh7,,0.7 µM
COc1cc(CC(=O)N/N=C/c2ccccc2OS(=O)(=O)c2ccc(C(F)(F)F)cc2)cc(OC)c1OC,,Huh7,replicon,>50 µM
O=C(O)c1sc(-c2ccc(-c3cn4ccccc4n3)cc2)cc1N(C(=O)C1CCC(C(F)(F)F)CC1)C1CCOCC1,1a,,replicon / ELISA,0.05–0.099 µM
O=C1/C(=C\c2ccc(Cl)cc2)C(=O)N(C2CCCCC2)C(=S)N1c1cccc2ccccc12,,,replicon,6.2 µM
CC(C)N(C(=O)c1ccc(Cl)cc1Cl)c1cc(-c2ccc(-c3cc4ncccn4n3)cc2)sc1C(=O)O,1b,,luciferase / replicon,0.01–0.05 µM
COc1cccc(CC(=O)N/N=C/c2cccc(C)c2OS(=O)(=O)c2ccc(C(F)(F)F)cc2)c1,,Huh7,replicon,<5 µM
CCOCCN(C(=O)C1CCC(C)CC1)c1cc(-c2ccc(-c3cc4ncccc4o3)cc2)sc1C(=O)O,1a,,replicon / ELISA,0.005–0.0099 µM
Cc1[nH]c(NC(=O)C(C)c2ccccc2)nc1-c1ccc(Cl)cc1,1a,Huh7,luciferase,>10 µM
CC1CCC(C(=O)N(c2cc(-c3ccc(-c4cc5nccc(N)n5n4)cc3)sc2C(=O)O)C2CCOCC2)CC1,1a,,replicon / ELISA,0.001–0.0049 µM
COc1cccc(CC(=O)N/N=C/c2ccccc2OS(=O)(=O)c2cnn(-c3ccccc3)c2C)c1,,Huh7,replicon,<5 µM
Nc1nc(=O)n([C@@H]2O[C@H](CO)C[C@H]2O)cc1F,,Huh7,,45.4 µM
COc1cccc(N2C(=O)/C(=C/c3ccc(-c4ccccc4)s3)C(=O)N(c3ccc(Cl)cc3)C2=S)c1,,,replicon,5.1 µM
COc1ccc(-c2nc(NC(=O)C(C)c3ccccc3)[nH]c2C)cc1S(C)(=O)=O,1b,Huh7,luciferase,0.132 µM
COc1cccc(CC(=O)N/N=C/c2ccccc2OS(=O)(=O)c2ccc(OC)c(OC)c2)c1,,Huh7,replicon,<5 µM
[N-]=[N+]=N[C@]1(CO)O[C@@H](n2ccc(N)nc2=O)[C@@H](O)[C@@H]1O,,,replicon,0.171 µM
Nc1ncnc2c1ncn2[C@@H]1O[C@H](CO)[C@@H](O)[C@H]1CO,1a,Huh7,luciferase,>88 µM
O=C(Cc1ccccc1OCc1ccccc1)N/N=C/c1ccccc1OS(=O)(=O)c1ccc(C(F)(F)F)cc1,,Huh7,replicon,<5 µM
CCOC(=O)CNC(=O)N1c2cccc(O)c2NC2=C(C(=O)CC(C)(C)C2)C1c1ccc(OCc2ccccc2)cc1Cl,1b,,luciferase / reporter gene / replicon,4.92 µM
CCOCCN(C(=O)C1CCC(C)CC1)c1cc(-c2ccc(-c3cn4ccccc4n3)cc2)sc1C(=O)O,1a,,replicon / ELISA,0.01–0.049 µM
Cc1cc(Br)ccc1C(=O)N(c1cc(-c2ccc(-c3cc4ncccn4n3)cc2)sc1C(=O)O)C(C)C,1b,,replicon / ELISA,0.1–0.5 µM
CC1(C)CC(=O)C2=C(C1)Nc1c(O)cccc1N(C(=O)NCCC(=O)O)C2c1ccc(OCc2ccccc2)cc1Cl,1b,,luciferase / reporter gene / replicon,>100 µM
CC(C)N(C(=O)c1ccc(Cl)cc1F)c1cc(-c2ccc(-c3cn4ccccc4n3)cc2)sc1C(=O)O,1a,,luciferase / replicon,0.01–0.05 µM
CC(=O)N1c2cccc(O)c2NC2=C(C(=O)CC(C)(C)C2)C1c1c(Cl)nc2sccn12,1b,,luciferase / reporter gene / replicon,>10 µM
CCCCn1c(=O)c2cc(OC)ccc2c2cc(C(O)(C(F)(F)F)C(F)(F)F)c(OC)cc21,1b,#50-1,PCR,0.4 µM
COc1c(O)cc2oc3cc(O)c(CC=C(C)C)c(O)c3c(=O)c2c1CC=C(C)C,J6/JFH-1 (gt 2a),Huh7.5,luciferase,6.3 µM
CCCCOc1ccc(S(=O)(=O)Oc2ccccc2/C=N/NC(=O)Cc2cccc(OC)c2)cc1,,Huh7,replicon,<5 µM
CC(C)N(C(=O)c1ccc(Cl)cc1Cl)c1cc(-c2ccc(-c3nn[nH]n3)cc2)sc1C(=O)O,1a,,replicon / ELISA,1–5 µM
COCC(COC)N(C(=O)C1CCC(C)CC1)c1cc(-c2ccc(-c3cc4ncccn4n3)cc2)sc1C(=O)O,1a,,replicon / ELISA,0.001–0.0049 µM
CC1(C)CC(=O)C2=C(C1)Nc1c(O)cccc1N(C(=O)CCC(=O)N1CCCc3ccccc31)C2c1ccc(OCc2ccccc2)cc1Cl,1b,,luciferase / reporter gene / replicon,3.18 µM
COCCN(C(=O)C1CCC(C(F)(F)F)CC1)c1cc(-c2ccc(-c3cc4ncccc4o3)cc2)sc1C(=O)O,1b,,replicon / ELISA,0.1–0.49 µM
CC(=O)N1c2cccc(O)c2NC2=C(C(=O)CC(C)(C)C2)C1c1ccc(OCc2ccccc2Cl)cc1Cl,1b,,luciferase / reporter gene / replicon,2.12 µM
COCC(C)N(C(=O)C1CCC(C)CC1)c1cc(-c2ccccc2)sc1C(=O)O,1b,,replicon / ELISA,0.1–0.49 µM
CNC(=O)c1c(-c2ccc(F)cc2)oc2cc(N(CCO)S(C)(=O)=O)c(C3CC3)cc12,HCVcc virus (JC1p7Fluc2a),Huh7.5,luciferase,0.095 µM

3 of the rows above, restated:

{"SMILES": "COCCN(C(=O)c1ccc(Cl)cc1Cl)c1cc(-c2ccc(-c3cc4ncccn4n3)cc2)sc1C(=O)O", "strain or isolate": "1a", "read by": "luciferase / replicon", "result": "0.01–0.05 µM"}
{"SMILES": "COc1cc(CC(=O)N/N=C/c2ccccc2OS(=O)(=O)c2ccc(C(F)(F)F)cc2)cc(OC)c1OC", "cells": "Huh7", "read by": "replicon", "result": ">50 µM"}
{"SMILES": "COc1ccc(-c2nc(NC(=O)[C@@H](C)c3ccc(Cl)cc3)[nH]c2C)cc1S(C)(=O)=O", "strain or isolate": "1b", "cells": "Huh7", "read by": "luciferase", "result": "0.056 µM"}